A mixed list of measured activities; the numbers were collected in NIAID ChemDB.

Common to all: growth or infection tests; organism: Mycobacterium smegmatis; measure: MIC99

Rows are shuffled and stem from different studies. MIC50, MIC90 and the like: level of inhibition, or share of isolates inhibited. Blank or dashed fields: not listed here.

smiles	strain	method	value
COc1c(N2CC[C@H](N)C2)c(F)cc2c(=O)n(N)c(=O)n(C3CC3)c12	G89C mutant		6.25 µg/mL
CCCCCCCCCCCCCC#CC(=O)OCCO	mc2155		6.8 µM
CCC1CN(c2c(F)cc3c(=O)c(C(=O)O)cn(C4CC4)c3c2OC)CCN1	A91V mutant		0.25 µg/mL
CC1COc2c(N3CCN(C)C(c4ccccc4)C3)c(F)c([N+](=O)[O-])c3c(=O)c(C(=O)O)cn1c23		agar	6.49 µM
c1ccc(CSc2nnc3c4ccccc4c4ccccc4c3n2)cc1	mc2155		150 µg/mL
CCSCCCCCCCCCCCCC#CC(=O)O	mc22389		83.8 µM
Cc1c(N2CC[C@@H](CN)C2)c(F)cc2c(=O)n(N)c(=O)n(C3CC3)c12	WT		0.625 µg/mL
C#CCCCCCCCCCCCCC#CC(=O)O	mc2155		76.3 µM
Cc1onc(-c2c(F)cccc2F)c1C(=O)N1CCN(c2c(F)cc3c(=O)c(C(=O)O)cn4c3c2OCC4C)CC1		agar	43.98 µM
CCCCCCCCCCCCCCCC#CC(=O)OCCO	mc2155		2.3 µM
CCC1CN(c2c(F)cc3c(=O)n(N)c(=O)n(C4CC4)c3c2OC)CCN1	G89C mutant		10 µg/mL
CCCCCCCCCCCCCCSCC#CC(=O)O	mc2651		167.5 µM
CCOC(=O)NC(=O)c1ccsc1NC(=O)c1nc2ccccc2s1		turbidity	4.5 µg/mL
COc1c(N2C[C@@H]3CCCN[C@@H]3C2)c(F)cc2c(=O)n(N)c(=O)n(C3CC3)c12	D95Y mutant		100 µg/mL
C[C@H]1COc2c(N3CCC4(CC3)OCCO4)c(F)c(N)c3c(=O)c(C(=O)O)cn1c23		agar	11.16 µM

2 of the rows above, restated:

smiles | strain | method | value
CCSCCCCCCCCCCCCC#CC(=O)O | mc22389 |  | 83.8 µM
CCOC(=O)NC(=O)c1ccsc1NC(=O)c1nc2ccccc2s1 |  | turbidity | 4.5 µg/mL